Anti-infective test results gathered from many reports (values: NIAID ChemDB through PubChem).

Common to all: target-level tests; organism: Hepatitis C virus; target: NS3/NS4A protease; measure: IC50

Two numbers with a dash give a range or band. Conditions beyond the fields shown may differ between rows. ICn is the concentration giving n% inhibition.

C=CC1C[C@]1(NC(=O)[C@@H]1C[C@@H](Oc2cc(-c3ccccc3)nc3cc(OC)ccc23)CN1C(=O)[C@@H](NC(=O)OC(C)(C)C)C(C)(C)C)C(=O)NS(=O)(=O)c1nnc(NC(C)=O)s1 ; strain or isolate: BMS ; result: 0.1–1 µM
CCCC(=O)c1cc2c(c(O)c1C)C(=O)C(=O)c1c(O)cccc1-2 ; result: 7 µM
C=CC1CC1(NC(=O)[C@@H]1C[C@@H](Oc2cc(-c3ccccc3)nc3cc(OC)ccc23)CN1C(=O)[C@@H](NC(=O)OC(C)(C)C)C(C)C)C(=O)NS(C)(=O)=O ; strain or isolate: BMS ; result: <0.5 µM
C=CC1C[C@]1(NC(=O)[C@@H]1C[C@@H](Oc2cc(-c3ccccc3)nc3cc(OC)ccc23)CN1C(=O)[C@@H](NC(=O)OC(C)(C)C)C(C)(C)C)C(=O)NS(=O)(=O)c1cc(Cl)c(Cl)s1 ; strain or isolate: BMS ; result: <0.1 µM
C=C[C@@H]1C[C@]1(NC(=O)[C@@H]1C[C@@H](Oc2cc(-c3ccccc3)nc3cc(OC)ccc23)CN1C(=O)[C@@H](NC(=O)OC(C)(C)C)C(C)(C)C)C(=O)NS(=O)(=O)c1ccccc1I ; strain or isolate: BMS ; result: <0.05 µM
C=C[C@@H]1C[C@]1(NC(=O)C1C[C@@H](Oc2cc(-c3csc(NC4CCCC4)n3)nc3cc(OC)ccc23)CN1C(=O)[C@@H](NC(=O)OC1CCCC1)C1CCCCC1)C(=O)O ; result: <0.1 µM
C=C[C@H]1C[C@@]1(NC(=O)[C@@H]1C[C@@H](Oc2cc(-c3ccccc3)nc3cc(OC)ccc23)CN1C(=O)[C@@H](NC(=O)O[C@@H]1CCOC1)C(C)(C)C)C(=O)NS(=O)(=O)C1(Cc2ccccc2)CC1 ; strain or isolate: BMS ; result: <0.05 µM
C=CC1CC1(NC(=O)[C@@H]1C[C@@H](OC(=O)N(C(C)C)C(C)C)CN1C(=O)[C@@H](NC(=O)OC(C)(C)C)C(C)(C)C)C(=O)NS(=O)(=O)C1CC1 ; strain or isolate: BMS/H77C/J416S ; result: <0.1 µM
C=C[C@@H]1C[C@]1(NC(=O)[C@@H]1C[C@@H](Oc2cc(-c3ccccc3)nc3cc(OC)ccc23)CN1C(=O)[C@@H](NS(C)(=O)=O)C(C)(C)C)C(=O)NS(=O)(=O)C1CC1 ; strain or isolate: BMS ; result: <0.05 µM
C=C[C@H]1C[C@@]1(NC(=O)[C@@H]1C[C@@H](Oc2cc(-c3ccccc3)nc3cc(OC)ccc23)CN1C(=O)[C@@H](NC(=O)OC(C)(C)C)C(C)(C)C)C(=O)NS(=O)(=O)C1(Cc2ccccn2)CC1 ; strain or isolate: BMS ; result: <0.05 µM
C=CC1CC1(NC(=O)[C@@H]1C[C@@H](OC(=O)Nc2cccc(OC)c2)CN1C(=O)[C@@H](NC(=O)OC(C)(C)C)C(C)(C)C)C(=O)NS(=O)(=O)C1CC1 ; strain or isolate: BMS/H77C/J416S ; result: <0.1 µM
C=CC1C[C@]1(NC(=O)[C@@H]1C[C@@H](Oc2cc(-c3ccccc3)nc3cc(OC)ccc23)CN1C(=O)[C@@H](NC(=O)OC(C)(C)C)C(C)(C)C)C(=O)NS(=O)(=O)c1ccc(C)cn1 ; strain or isolate: BMS ; result: <0.1 µM
C=C[C@@H]1C[C@]1(NC(=O)C1C[C@@H](Oc2cc(-c3csc(NC4CCC4)n3)nc3cc(OC)ccc23)CN1C(=O)[C@@H](NC(=O)OC1CCCC1)C(C)(C)C)C(=O)O ; result: <0.1 µM
C=C[C@@H]1C[C@]1(NC(=O)[C@@H]1C[C@@H](Oc2cc(-c3ccccc3)nc3cc(OC)ccc23)CN1C(=O)[C@@H](NC(=O)OCCF)C(C)(C)C)C(=O)NS(=O)(=O)C1CC1 ; strain or isolate: BMS ; result: <0.05 µM
CCCCCC[C@@H](C=O)NC(=O)[C@H](CC(C)C)NC(=O)[C@@H](NC(=O)[C@H](Cc1ccccc1C)NC(=O)[C@H](CCC(=O)O)NC(=O)[C@H](CC(=O)O)NC(=O)CCC(=O)O)C(C)(C)C ; result: 0.225 µM
C=CC1C[C@]1(NC(=O)[C@@H]1C[C@@H](Oc2cc(-c3ccccc3)nc3cc(OC)ccc23)CN1C(=O)[C@@H](NC(=O)OC(C)(C)C)C(C)(C)C)C(=O)NS(=O)(=O)c1ccc(Cl)s1 ; strain or isolate: BMS ; result: <0.1 µM
C=CC1CC1(NC(=O)[C@@H]1C[C@@H](OC(=O)NCCc2cccs2)CN1C(=O)[C@@H](NC(=O)OC(C)(C)C)C(C)(C)C)C(=O)O ; strain or isolate: BMS/H77C/J416S ; result: >10 µM
CCCCCCCCCCCCCCCCC/C(=C1\SC(=S)C(CC(=O)O)C1=O)c1ccccc1 ; result: 4.4 µM
C=C[C@H]1C[C@@]1(NC(=O)[C@@H]1C[C@@H](Oc2cc(-c3ccccc3)nc3cc(OC)ccc23)CN1C(=O)[C@@H](NC(=O)OC(C)(C)C)C(C)(C)C)C(=O)NS(=O)(=O)C1(CCC)CC1 ; strain or isolate: BMS ; result: <0.05 µM
C=C[C@@H]1C[C@]1(NC(=O)[C@@H]1C[C@@H](Oc2cc(-c3ccccc3)nc3cc(OC)ccc23)CN1C(=O)[C@@H](NC(=O)OC(C)(C)C)C(C)(C)C)C(=O)NS(=O)(=O)C1CCCCC1 ; strain or isolate: BMS ; result: <0.5 µM
C=CC1CC1(NC(=O)[C@@H]1C[C@@H](OC(=O)Nc2cc(Cl)cc(Cl)c2)CN1C(=O)[C@@H](NC(=O)OC(C)(C)C)C(C)(C)C)C(=O)NS(=O)(=O)C1CC1 ; strain or isolate: BMS/H77C/J416S ; result: <0.1 µM
C=CC1CC1(NC(=O)C1C[C@@H](Oc2cc(-c3ccccc3)nc3cc(OC)ccc23)CN1C(=O)C(NC(=O)OC(C)(C)C)C(C)(C)C)C(=O)OCC ; strain or isolate: BMS ; result: 0.017 µM
C=CC1CC1(NC(=O)[C@@H]1C[C@@H](OC(=O)Nc2ccccc2Br)CN1C(=O)[C@@H](NC(=O)OC(C)(C)C)C(C)(C)C)C(=O)NS(=O)(=O)C1CC1 ; strain or isolate: BMS/H77C/J416S ; result: 0.1–1 µM
CC[C@@H](C=O)C(=O)[C@H](CCC(=O)O)NC(=O)[C@H](CCC(=O)O)NC(=O)[C@H](CCSC)NC(=O)[C@H](CCC(=O)O)NC(=O)[C@H](CC(=O)O)NC(=O)CCC(=O)O ; result: 97 µM
C=C[C@H]1C[C@@]1(NC(=O)[C@@H]1C[C@@H](Oc2cc(-c3ccccc3)nc3cc(OC)ccc23)CN1C(=O)[C@@H](NC(=O)OC(C)(C)C)C(C)(C)C)C(=O)NS(=O)(=O)C1(CC(C)C)CC1 ; strain or isolate: BMS ; result: <0.05 µM
C=CC1CC1(NC(=O)[C@@H]1C[C@@H](OC(=O)N(C)C)CN1C(=O)[C@@H](NC(=O)OC(C)(C)C)C(C)(C)C)C(=O)NS(=O)(=O)C1CC1 ; strain or isolate: BMS/H77C/J416S ; result: 0.1–1 µM
C=CC1C[C@]1(NC(=O)[C@@H]1C[C@@H](Oc2cc(-c3ccccc3)nc3cc(OC)ccc23)CN1C(=O)[C@@H](NC(=O)OC(C)(C)C)C(C)(C)C)C(=O)NS(=O)(=O)c1sc(C)nc1C ; strain or isolate: BMS ; result: <0.1 µM
C#CC[C@@H](C=O)C(=O)[C@H](CCC(=O)O)NC(=O)[C@@H](Cc1ccccc1)NC(=O)[C@H](CCSC)NC(=O)[C@H](CCC(=O)O)NC(=O)[C@H](CC(=O)O)NC(=O)CCC(=O)O ; result: 5 µM
CCCC1(S(=O)(=O)NC(=O)[C@]2(NC(=O)[C@@H]3C[C@@H](Oc4cc(-c5ccccc5)nc5cc(OC)ccc45)CN3C(=O)[C@@H](NC(=O)OC(C)(C)C)C(C)(C)C)CC2C2CC2)CC1 ; strain or isolate: BMS ; result: <0.05 µM
C=CC1CC1(NC(=O)[C@@H]1C[C@@H](OC(=O)N[C@H](C(=O)OC)[C@@H](C)CC)CN1C(=O)[C@@H](NC(=O)OC(C)(C)C)C(C)(C)C)C(=O)NS(=O)(=O)C1CC1 ; strain or isolate: BMS/H77C/J416S ; result: 1–10 µM
C=CC1C[C@]1(NC(=O)[C@@H]1C[C@@H](Oc2cc(-c3ccccc3)nc3cc(OC)ccc23)CN1C(=O)[C@@H](NC(=O)OC(C)(C)C)C(C)(C)C)C(=O)NS(=O)(=O)c1nc2ccc(OCC)cc2s1 ; strain or isolate: BMS ; result: 0.1–1 µM
C=CC1CC1(NC(=O)[C@@H]1C[C@@H](OC(=O)Nc2ccc3c(c2)OCO3)CN1C(=O)[C@@H](NC(=O)OC(C)(C)C)C(C)(C)C)C(=O)NS(=O)(=O)C1CC1 ; strain or isolate: BMS/H77C/J416S ; result: 0.1–1 µM
C=CC[C@@H](C=O)C(=O)[C@H](CCC(=O)O)NC(=O)[C@H](CCC(=O)O)NC(=O)[C@H](CCSC)NC(=O)[C@H](CCC(=O)O)NC(=O)[C@H](CC(=O)O)NC(=O)CCC(=O)O ; result: 22 µM
C=C[C@@H]1C[C@]1(NC(=O)C1C[C@@H](Oc2cc(-c3csc(NC4CCCC4)n3)nc3cc(OC)ccc23)CN1C(=O)[C@@H](NC(=O)OC1CCCC1)C1CCCC1)C(=O)O ; result: <0.1 µM
CSCC[C@H](NC(=O)[C@H](CCC(=O)O)NC(=O)[C@H](CC(=O)O)NC(=O)CCC(=O)O)C(=O)N[C@H](C(=O)N[C@@H](CCC(=O)O)C(=O)N[C@H](C=O)CC(F)(F)F)C(C)C ; result: 3 µM
CC[C@@H]1C[C@]1(NC(=O)[C@@H]1C[C@@H](Oc2cc(-c3ccccc3)nc3cc(OC)ccc23)CN1C(=O)[C@H](CC1CCCCC1)NC(=O)OC(C)(C)C)C(=O)NS(=O)(=O)C(F)(F)F ; strain or isolate: BMS ; result: <5 µM
C=C[C@H]1C[C@@]1(NC(=O)[C@@H]1C[C@@H](Oc2cc(-c3ccccc3)nc3cc(OC)ccc23)CN1C(=O)[C@@H](NC(=O)OC(C)(C)C)C(C)(C)C)C(=O)NS(=O)(=O)C1(CC#CCC)CC1 ; strain or isolate: BMS ; result: <0.05 µM
C#CC[C@@H](C=O)C(=O)[C@H](CCC(=O)O)NC(=O)[C@@H](CCC(=O)O)NC(=O)[C@H](Cc1ccccc1C)NC(=O)[C@H](CCC(=O)O)NC(=O)[C@H](CC(=O)O)NC(=O)CCC(=O)O ; result: 5 µM
C=CC1C[C@@]1(NC(=O)[C@@H]1C[C@@H](Oc2cc(-c3ccccc3)nc3cc(OC)ccc23)CN1C(=O)[C@@H](NC(=O)O[C@H]1CC(C)CC[C@@H]1C(C)C)C(C)(C)C)C(=O)NS(=O)(=O)C1(Cc2ccccc2)CC1 ; strain or isolate: BMS ; result: 0.5–5 µM
C#CC[C@@H](C=O)C(=O)[C@H](CCC(=O)O)NC(=O)[C@@H](CCC(=O)O)NC(=O)[C@H](Cc1cccc(C)c1)NC(=O)[C@H](CCC(=O)O)NC(=O)[C@H](CC(=O)O)NC(=O)CCC(=O)O ; result: 22 µM

A second listing of 5 rows from above:

{"compound": "C=C[C@@H]1C[C@]1(NC(=O)[C@@H]1C[C@@H](Oc2cc(-c3ccccc3)nc3cc(OC)ccc23)CN1C(=O)[C@@H](NC(=O)OC(C)(C)C)C(C)(C)C)C(=O)NS(=O)(=O)C1CCCCC1", "strain or isolate": "BMS", "result": "<0.5 µM"}
{"compound": "C=CC1CC1(NC(=O)[C@@H]1C[C@@H](OC(=O)N(C)C)CN1C(=O)[C@@H](NC(=O)OC(C)(C)C)C(C)(C)C)C(=O)NS(=O)(=O)C1CC1", "strain or isolate": "BMS/H77C/J416S", "result": "0.1–1 µM"}
{"compound": "CC[C@@H]1C[C@]1(NC(=O)[C@@H]1C[C@@H](Oc2cc(-c3ccccc3)nc3cc(OC)ccc23)CN1C(=O)[C@H](CC1CCCCC1)NC(=O)OC(C)(C)C)C(=O)NS(=O)(=O)C(F)(F)F", "strain or isolate": "BMS", "result": "<5 µM"}
{"compound": "C=CC1CC1(NC(=O)[C@@H]1C[C@@H](OC(=O)N[C@H](C(=O)OC)[C@@H](C)CC)CN1C(=O)[C@@H](NC(=O)OC(C)(C)C)C(C)(C)C)C(=O)NS(=O)(=O)C1CC1", "strain or isolate": "BMS/H77C/J416S", "result": "1–10 µM"}
{"compound": "CSCC[C@H](NC(=O)[C@H](CCC(=O)O)NC(=O)[C@H](CC(=O)O)NC(=O)CCC(=O)O)C(=O)N[C@H](C(=O)N[C@@H](CCC(=O)O)C(=O)N[C@H](C=O)CC(F)(F)F)C(C)C", "result": "3 µM"}